# The entries are a selection whose mix differs from that of the whole data set. Activity calls are given as the source filed them.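 How the source made its calls: active means share of bacteria positive for the green fluorescent reporter and its mean brightness both inhibited by 50% or more; inactive means the rest, inconclusive results apart.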
# Assay: S. aureus quorum sensing inhibitors, primary screen, RNAIII-GFP reporter, flow cytometry (AID 527);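 further: 0% = AIP-stimulated control and 100% = unstimulated bacteria without AIP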
# Conditions: S. aureus RN6390 RNAIII-GFP reporter, AIP-induced, flow cytometry 3 h; at 2 µM; stronger effect = higher value
row,Compound,inhibition
1,Cc1ccc(C)c(NP(C)(=O)Oc2ccccc2)c1 (centres undefined),inactive: 0%
2,CCOP1(=S)c2c(C)nn(CCC#N)c2N=C(c2ccccc2F)N1C (centres undefined),inactive: -2.8%
3,Cc1nn(-c2ccccc2)c2c1P(=O)(N1CCOCC1)N(C)C(c1ccccc1)=N2 (centres undefined),inactive: 5.3%
4,Clc1n[nH]nc1-c1nn[nH][15n]1,inactive: 3%
5,O=C(COc1ccccc1)OC1CN2CCC1CC2 (centres undefined),inactive: -8.3%
6,COP1(=S)c2c(C)nn(CCC#N)c2N=C(c2ccc(F)cc2)N1C (centres undefined),inactive: -2%
7,CP(=S)(Nn1cnnc1)Oc1ccccc1 (centres undefined),inactive: -3.9%
8,CP(=O)(Nc1ccccn1)Oc1ccccc1 (centres undefined),inactive: 0.4%
9,Cc1nc2ccc3ccccc3c2o1.O=[N+]([O-])c1cc([N+](=O)[O-])c(O)c([N+](=O)[O-])c1,inactive: -3.1%
10,CCc1nc2c(n1)c1c(non1O)c1c2no[n+]1[O-],inactive: -0.3%
11,O=P(Nc1nccs1)(c1ccccc1)c1ccccc1,inactive: -0.5%
12,Cc1ccccc1NP(C)(=O)Nc1ccccc1C,inactive: -1.6%
13,CP(=O)(Nc1ccc2c(c1)OCCO2)Oc1ccccc1 (centres undefined),inactive: 0.2%
14,CN(C)CCOC(=O)C(O)(c1ccccc1)C1CCCCC1 (centres undefined),inactive: -0.5%

# — PubChem BioAssay AID527 (NMMLSC, 2006)
